T1: human Kv1.1 (human), Q09470
T1 chain: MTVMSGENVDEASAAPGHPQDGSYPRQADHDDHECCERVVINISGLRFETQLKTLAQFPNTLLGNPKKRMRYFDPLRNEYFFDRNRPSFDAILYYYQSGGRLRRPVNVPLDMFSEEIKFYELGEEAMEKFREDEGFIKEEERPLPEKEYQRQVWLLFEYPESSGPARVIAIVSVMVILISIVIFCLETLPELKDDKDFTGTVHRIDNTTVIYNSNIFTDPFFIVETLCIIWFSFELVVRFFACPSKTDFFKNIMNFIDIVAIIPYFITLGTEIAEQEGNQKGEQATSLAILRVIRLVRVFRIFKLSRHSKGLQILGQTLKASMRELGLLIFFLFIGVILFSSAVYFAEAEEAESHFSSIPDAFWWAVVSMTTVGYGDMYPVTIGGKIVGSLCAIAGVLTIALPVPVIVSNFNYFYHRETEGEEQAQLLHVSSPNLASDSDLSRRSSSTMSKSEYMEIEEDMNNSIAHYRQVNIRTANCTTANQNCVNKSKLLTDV

B1: [Lys16,29; Tyr27]ShK-amide (peptide)
peptide: RSCIDTIPKSRCTAFKCKHSMKYRLSYCKKTCGTC
modifications: not checked
B2: [Glu4, Lys16, Ser21]ShK-amide (peptide)
peptide: RSCEDTIPKSRCTAFKCKHSSKYRLSFCRKTCGTC
modifications: not checked
B3: [Glu4, Lys16, Gln21]ShK-amide (peptide)
peptide: RSCEDTIPKSRCTAFKCKHSQKYRLSFCRKTCGTC
modifications: not checked
B4: [Lys16, Ser21]ShK-amide (peptide)
peptide: RSCIDTIPKSRCTAFKCKHSSKYRLSFCRKTCGTC
modifications: not checked
B5: [Lys16, Gln21]ShK-amide (peptide)
peptide: RSCIDTIPKSRCTAFKCKHSQKYRLSFCRKTCGTC
modifications: not checked
B6: [Lys16, His21]ShK-amide (peptide)
peptide: RSCIDTIPKSRCTAFKCKHSHKYRLSFCRKTCGTC
modifications: not checked
B7: [Lys16, Val21]ShK-amide (peptide)
peptide: RSCIDTIPKSRCTAFKCKHSVKYRLSFCRKTCGTC
modifications: not checked
B8: [Lys16, Phe21]ShK-amide (peptide)
peptide: RSCIDTIPKSRCTAFKCKHSFKYRLSFCRKTCGTC
modifications: not checked
B9: [Ala34]Osk-1 (peptide)
peptide: GVIINVKCKISRQCLEPCKKAGMRFGKCMNGKCACTPK
modifications: not checked
B10: 20kDaPEG-[Lys16,Ala21]ShK (peptide)
peptide: RSCIDTIPKSRCTAFKCKHSAKYRLSFCRKTCGTC
modifications: not checked
B11: 20kDaPEG-[Lys16,Gln21]ShK-amide (peptide)
peptide: RSCIDTIPKSRCTAFKCKHSQKYRLSFCRKTCGTC
modifications: not checked
B12: 20kDaPEG-[Glu4,Lys16,Gln21]ShK-Ala (peptide)
peptide: RSCEDTIPKSRCTAFKCKHSQKYRLSFCRKTCGTCA
modifications: not checked
B13: [Ala15,Lys16]ShK-amide (peptide)
peptide: RSCIDTIPKSRCTAAKCKHSMKYRLSFCRKTCGTC
modifications: not checked
B14: [Lys16,29; Tyr26]ShK-amide (peptide)
peptide: RSCIDTIPKSRCTAFKCKHSMKYRLYFCKKTCGTC
modifications: not checked
B15: [Lys16, Glu18]ShK-amide (peptide)
peptide: RSCIDTIPKSRCTAFKCEHSMKYRLSFCRKTCGTC
modifications: not checked
B16: [Glu4,10; Lys16,29; Arg18,30]ShK-amide (peptide)
peptide: RSCEDTIPKERCTAFKCRHSMKYRLSFCKRTCGTC
modifications: not checked
B17: [Glu4,9,10; Lys16,29; Arg18, 30]ShK-amide (peptide)
peptide: RSCEDTIPEERCTAFKCRHSMKYRLSFCKRTCGTC
modifications: not checked
B18: [Lys16,29; Trp27]ShK-amide (peptide)
peptide: RSCIDTIPKSRCTAFKCKHSMKYRLSWCKKTCGTC
modifications: not checked
B19: [Glu4; Lys16, 29; Arg18, 30]ShK-amide (peptide)
peptide: RSCEDTIPKSRCTAFKCRHSMKYRLSFCKRTCGTC
modifications: not checked
B20: 20 kDa PEG-[Lys16]ShK (peptide)
peptide: RSCIDTIPKSRCTAFKCKHSMKYRLSFCRKTCGTC
modifications: not checked
B21: [Lys16,Gln21]ShK-Ala (peptide)
peptide: RSCIDTIPKSRCTAFKCKHSQKYRLSFCRKTCGTCA
modifications: not checked

target: human Kv1.3 (human), P22001; experiment: cell-based or functional assay

Question: Which Kv1.3 (IWQ) IC50 does the source give for B1 here?
Answer: Its Kv1.3 (IWQ) IC50 is 0.042 nM.

Question: Which Kv1.3 (IWQ) IC50 does the source give for B2 here?
Answer: Its Kv1.3 (IWQ) IC50 is 0.098 nM.

Question: And the WB (IL-2) IC50?
Answer: The WB (IL-2) IC50 was 0.86 nM.

Question: For B3, which WB (IL-2) IC50 is on record?
Answer: Its WB (IL-2) IC50 is 0.23 nM.

Question: Which Kv1.3 (IWQ) IC50 does the source give for B4 here?
Answer: The Kv1.3 (IWQ) IC50 was 0.068 nM.

Question: With B5 as the binder, how does the WB (IL-2) IC50 read?
Answer: Its WB (IL-2) IC50 is 0.42 nM.

Question: How did the WB (IL-2) IC50 turn out when B6 was run?
Answer: Its WB (IL-2) IC50 is 5.5 nM.

Question: With B7 as the binder, how does the WB (IL-2) IC50 read?
Answer: The WB (IL-2) IC50 was 4.8 nM.

Question: How did the WB (IFNg) IC50 turn out when B8 was run?
Answer: Its WB (IFNg) IC50 is 2.04 nM.

Question: What does the source list for B9?
Answer: Kv1.3 (IWQ) IC50: 0.1 nM; WB (IFNg) IC50: 0.074 nM; WB (IL-2) IC50: 0.052 nM

Question: For B10, which Kv1.3 (IWQ) IC50 is on record?
Answer: The Kv1.3 (IWQ) IC50 was 4.57 nM.

Question: And the WB (IFNg) IC50?
Answer: The WB (IFNg) IC50 was 7.92 nM.

Question: What about the WB (IL-2) IC50 of the same binder?
Answer: The WB (IL-2) IC50 was 4.8 nM.

Question: How did the WB (IFNg) IC50 turn out when B11 was run?
Answer: The WB (IFNg) IC50 was 0.942 nM.

Question: For B12, which Kv1.3 (IWQ) IC50 is on record?
Answer: Its Kv1.3 (IWQ) IC50 is 7.78 nM.

Question: And the WB (IFNg) IC50?
Answer: The WB (IFNg) IC50 was 14 nM.

Question: What about the WB (IL-2) IC50 of the same binder?
Answer: Its WB (IL-2) IC50 is 2.78 nM.

Question: With B13 as the binder, how does the Kv1.3 (IWQ) IC50 read?
Answer: The Kv1.3 (IWQ) IC50 was 0.091 nM.

Question: What does the source list for B14?
Answer: Kv1.3 (IWQ) IC50: 0.084 nM; WB (IL-2) IC50: 1.04 nM

Question: How did the Kv1.3 (IWQ) IC50 turn out when B15 was run?
Answer: Its Kv1.3 (IWQ) IC50 is 0.065 nM.

Question: For B16, which Kv1.3 (IWQ) IC50 is on record?
Answer: The Kv1.3 (IWQ) IC50 was 0.064 nM.

Question: B17 was tested. Which Kv1.3 (IWQ) IC50 did it give?
Answer: The Kv1.3 (IWQ) IC50 was 0.059 nM.

Question: What about the WB (IL-2) IC50 of the same binder?
Answer: The WB (IL-2) IC50 was 0.204 nM.

Question: Which WB (IFNg) IC50 does the source give for B18 here?
Answer: The WB (IFNg) IC50 was 0.606 nM.

Question: How did the WB (IL-2) IC50 turn out when B19 was run?
Answer: The WB (IL-2) IC50 was 0.203 nM.

target: hKvLQT1/hminK (IKs) (human), P51787; experiment: cell-based or functional assay

Question: B20 was tested. Which KvLQT1/minK (IKs) IC50 did it give?
Answer: Its KvLQT1/minK (IKs) IC50 is greater than 30000 nM.

Target: T1, human Kv1.1 (human), Q09470
Experiment: cell-based or functional assay

Question: Which Kv1.1 (IWQ) IC50 does the source give for B21 here?
Answer: Its Kv1.1 (IWQ) IC50 is 4.01 nM.

Question: For B9, which Kv1.1 (IWQ) IC50 is on record?
Answer: Its Kv1.1 (IWQ) IC50 is 1.07 nM.

Question: For B11, which Kv1.1 (IWQ) IC50 is on record?
Answer: Its Kv1.1 (IWQ) IC50 is 537 nM.
